Assay results reported in patent US8470822B2, “Folate mimetics and folate-receptor binding conjugates thereof” (Purdue Research Foundation, priority 2001, dated 2013).

Protein sequences, listed by entry. Tags and fused reporters are not part of them. Lines headed by an entry give the natural chain unless they say otherwise; changes in a name come on top.
UniProt P15328: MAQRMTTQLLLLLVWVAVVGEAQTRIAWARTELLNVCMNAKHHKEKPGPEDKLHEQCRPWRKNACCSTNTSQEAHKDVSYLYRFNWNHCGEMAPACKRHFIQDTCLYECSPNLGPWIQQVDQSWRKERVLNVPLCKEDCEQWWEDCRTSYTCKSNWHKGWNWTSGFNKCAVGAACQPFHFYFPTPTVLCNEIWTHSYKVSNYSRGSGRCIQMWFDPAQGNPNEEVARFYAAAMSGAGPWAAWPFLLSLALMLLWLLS

Target: folate receptor on KB cells (Homo sapiens, UniProt P15328)
Assay: Relative binding affinity: competition with 3H-folic acid for binding to KB cells

Question: “pteroylhydrazido-benzenetetracarboxylic acid-diacetoxyscirpenol” was tested. Which “relative binding activity compared to folic acid” value (100 nM 3H-folic acid, 15 minutes on ice, folic acid set to 1) did it give?
Answer: Its value is 0.60.

Question: And the EC50 (read-out: EC50 (displacement of 3H-folic acid bound to folate receptor), 100 nM 3H-folic acid, 15 minutes on ice)?
Answer: Its EC50 is 116 nM.
